A mixed list of measured activities; the numbers were collected in NIAID ChemDB.

All rows: cytotoxicity tests; cells: VERO; measure: CC50

CCn: concentration that lowers growth or viability of the cells by n%.

structure,read by,result
COc1cccc([C@H](c2cc3cc(Br)ccc3nc2OC)[C@@](O)(CCN(C)C)c2cc(C)nc(C)c2)c1F,,>10 µg/mL
O=C(O)Cn1cc(C#Cc2ccc3c4cccc5cccc(c6cccc2c63)c54)c(=O)[nH]c1=O,MTT,>20 µM
O=c1[nH]c(=O)n(C2C[C@H](CO)[C@@H](CO)C2)cc1I,,>200 µg/mL
Cc1ccc2nc(Cl)c(/C=C/C(=O)c3ccc(Br)s3)cc2c1,MTS,15.5 µM
CSc1nsc(C)c1C#N,,100 µM
OCc1cc(COc2cc(C(F)(F)F)nc3c(C(F)(F)F)cccc23)on1,,>128 µM
CSc1nsc(-c2ccc(OS(=O)(=O)c3ccc(C)cc3)cc2)c1C#N,,25 µM
CCc1nc2ccccc2n1CCCCSc1ccc2ccccc2c1,luminescence,10 µM
O=C(C/C=C/c1ccccc1)Nc1ccccc1N1CCSCC1,,64 µg/mL
CCc1nc2ccccc2n1CCCSc1ccc(C)cc1,luminescence,24 µM
CCOC(=O)c1cc(COc2cc(C(F)(F)F)nc3c(C(F)(F)F)cccc23)on1,,>128 µM
CCc1nc2ccc(Cl)cn2c1C(=O)NCc1ccc2c(c1)CCO2,,>32 µM
Clc1ccc(CNc2ccccc2N2CCSCC2)cc1,,8 µg/mL
OC[C@H]1CC(n2cnc3c(NC4CC4)ncnc32)C[C@@H]1CO,,>200 µg/mL
Cc1cn2c(C(=O)NCc3ccc(N4CCCN(c5ccc(S(F)(F)(F)(F)F)cc5)CC4)cc3)c(C)nc2s1,,>32 µM
CCOC(=O)c1cc(COc2ccc3cc[nH]c3c2)on1,,>128 µM
Clc1ccc(CNc2ccccc2-n2ccnc2)cc1,,2 µg/mL
O=c1[nH]c(=O)n([C@H]2C[C@H](O)[C@@H](CO)S2)cc1I,,>100 µM
CCc1nc2ccccc2n1CCCCSc1nnnn1C,luminescence,>50 µM
Cc1cc(Cl)ccc1OCc1nn2c(-c3ccc(Br)cc3)nnc2s1,resazurin,32.52 µM
CCc1nc2ccccc2n1CCCNc1ccc(C)c(C)c1,luminescence,>100 µM
COc1ccc2nc(Cl)c(/C=C/C(=O)c3ccc(I)s3)cc2c1,MTS,17.6 µM
CCc1nc2cc(C)ccn2c1C(=O)NCc1ccc(S(F)(F)(F)(F)F)cc1,,>32 µM
O=c1[nH]c(=O)n([C@H]2C[C@H](O)[C@@H](CO)S2)cc1[N+](=O)[O-],,476 µM
O=[N+]([O-])c1ccc(OCc2nn3c(-c4ccc(Cl)cc4)nnc3s2)cc1,resazurin,27.27 µM
Cc1ccc2nc(Cl)c(/C=C/C(=O)c3sccc3Br)cc2c1,MTS,87.9 µM
Cc1cn2c(C(=O)NCc3ccc(N4CCS(=O)(=O)CC4)cc3)c(C)nc2s1,,>32 µM
O=c1[nH]c(=O)n([C@@H]2O[C@H](CO)[C@@H](O)[C@@H]2O)cc1C#Cc1ccc2c3cccc4cccc(c5cccc1c52)c43,MTT,>20 µM
O=C(Nc1ccccc1N1CCSCC1)c1ccc(Cl)cc1,,64 µg/mL
CSc1nsc(-c2ccccn2)c1C#N,,50 µM
Nc1nc2c(ncn2C=C2CC2CO)c(=O)[nH]1,,85 µM
CSc1nsc(-c2ccc[n+](C)c2)c1C#N,,1250 µM
CCc1nc2ccccc2n1CCCCSc1ccc2ccccc2n1,luminescence,7 µM
Cc1ccc2nc(Cl)c(/C=C/C(=O)c3ccc(C)o3)cc2c1,MTS,13.3 µM
Nc1nc2c(ncn2[C@@H]2O[C@H](CO)C[C@@H]2F)c(=O)[nH]1,,39 µM
COc1cccc([C@H](c2cc3cc(Br)ccc3nc2OC)[C@@](O)(CCN(C)C)c2cc(C)ccn2)c1F,,>10 µg/mL
Cc1nc2ccc(C(F)(F)F)cn2c1C(=O)NCc1ccc2c(c1)CCO2,,>32 µM
C(=C\c1ccccc1)/CCNc1cccc(N2CCSCC2)c1,,16 µg/mL
COc1ccc2nc(Cl)c(/C=C/C(=O)c3cccc4ccccc34)cc2c1,MTS,14.9 µM
O=[N+]([O-])c1ccc(OCc2nn3c(-c4ccc(Br)cc4)nnc3s2)cc1,resazurin,243.9 µM
O=C(c1cc(COc2cc(C(F)(F)F)nc3c(C(F)(F)F)cccc23)on1)N1CCCCO1,,>128 µM
CSc1nsc(-c2ccc(C)cc2)c1C#N,,18 µM
COc1cccc([C@H](c2cc3cc(C#N)ccc3nc2OC)[C@@](O)(CCN(C)C)c2cccc(C)n2)c1F,,>10 µg/mL
O=c1ccn([C@@H]2C[C@H](CO)C[C@H]2CO)c(=O)[nH]1,,>200 µg/mL
O=c1[nH]c(=O)n([C@H]2C[C@H](O)[C@@H](CO)S2)cc1CCCl,,>200 µM
COc1ccnc([C@](O)(CCN(C)C)[C@@H](c2cc3cc(Br)ccc3nc2OC)c2cccc(OC)c2F)c1,,>10 µg/mL
Nc1ncnc2c1ncn2C=C1CC1CO,,28 µM
CCCCCCOC(=O)c1cc(COc2cc(C(F)(F)F)nc3c(C(F)(F)F)cccc23)on1,,>128 µM
O=C(C/C=C/c1ccccc1)Nc1cccc(N2CCSCC2)c1,,32 µg/mL
C=Cc1cn([C@H]2C[C@H](O)[C@@H](CO)S2)c(=O)[nH]c1=O,,>500 µM
O=C(O)c1c2n(c3cc(N4CCC(O)(c5ccc(Cl)cc5)CC4)c(F)cc3c1=O)CS2,MTT,135.6 µM
Brc1ccc(OCc2nn3c(-c4ccc(Br)cc4)nnc3s2)cc1,resazurin,124 µM
Cc1cn2c(C(=O)NCc3ccc(N4CCN(C(=O)OCC(C)C)CC4)c(F)c3)c(C)nc2s1,,>32 µM
CC(C)(C)OC(=O)NC1C2CN(c3cc4c(cc3[N+](=O)[O-])c(=O)c(C(=O)O)c3n4CS3)CC21,MTT,65.86 µM
Nc1nc(=O)n([C@H]2O[C@@H](CO)C=C2F)cc1F,,>100 µM
CC(C)(C)C(=O)OCn1c(=O)c(C#Cc2ccc3c4cccc5cccc(c6cccc2c63)c54)cn(CC(=O)NCCCCO)c1=O,MTT,2–6 µM
COc1ccc2nc(Cl)c(/C=C/C(=O)c3c4ccccc4cc4ccccc34)cc2c1,MTS,15.6 µM
O=C(O)c1c2n(c3cc(N4CCN(Cc5ccc6c(c5)OCO6)CC4)c(F)cc3c1=O)CS2,MTT,>133 µM
O=C(OCc1ccccc1)c1cc(COc2cc(C(F)(F)F)nc3c(C(F)(F)F)cccc23)on1,,>128 µM
O=C(Nc1ccc(N2CCSCC2)cc1)c1ccc(Cl)cc1,,64 µg/mL
O=C(O)c1c2n(c3cc(N4CCN(Cc5ccc6c(c5)OCO6)CC4)c([N+](=O)[O-])cc3c1=O)CS2,MTT,126 µM
c1ccc(-c2ccc(CNc3ccccc3N3CCOCC3)cc2)cc1,,16 µg/mL
CCc1nc2ccc(C)cn2c1C(=O)NCc1ccc2c(c1)CCO2,,>32 µM
Cc1ccc2nc(Cl)c(/C=C/C(=O)c3cc(C)sc3C)cc2c1,MTS,2.4 µM
CCc1nc2ccc(Cl)cn2c1C(=O)NCc1ccc(N2CCN(c3ccc(S(F)(F)(F)(F)F)cc3)CC2)cc1,,>32 µM
CCCCNC(=O)Cn1cc(C#Cc2ccc3c4cccc5cccc(c6cccc2c63)c54)c(=O)n(COC(=O)C(C)(C)C)c1=O,MTT,>20 µM
O=C(O)c1c2n(c3cc(N4CCC5(CC4)OCCO5)c(F)cc3c1=O)CS2,MTT,>159 µM
Cc1cn2c(C(=O)NCc3ccc(N4CCN(c5ccc(C(F)(F)F)cn5)CC4)c(F)c3)c(C)nc2s1,,>32 µM

The last 5 rows once more:

structure,read by,result
Cc1ccc2nc(Cl)c(/C=C/C(=O)c3cc(C)sc3C)cc2c1,MTS,2.4 µM
CCc1nc2ccc(Cl)cn2c1C(=O)NCc1ccc(N2CCN(c3ccc(S(F)(F)(F)(F)F)cc3)CC2)cc1,,>32 µM
CCCCNC(=O)Cn1cc(C#Cc2ccc3c4cccc5cccc(c6cccc2c63)c54)c(=O)n(COC(=O)C(C)(C)C)c1=O,MTT,>20 µM
O=C(O)c1c2n(c3cc(N4CCC5(CC4)OCCO5)c(F)cc3c1=O)CS2,MTT,>159 µM
Cc1cn2c(C(=O)NCc3ccc(N4CCN(c5ccc(C(F)(F)F)cn5)CC4)c(F)c3)c(C)nc2s1,,>32 µM

Rows are shuffled and stem from different studies. An empty or dashed field is not shown. Two numbers with a dash give a range or band.